Results: EP2961753B1, “STANNOUS FLUORESCENT PROBE” (priority 2014, dated 2015)

System: Streptococcus mutans (ATCC® 700610™)
Assay: Fluorescence imaging of Sn^2+ in bacteria (confocal laser scanning microscopy)
Type: cell-based

CCN(CC)c1ccc2c(c1)Oc1cc(N(CC)CC)ccc1C21c2ccccc2C(=O)N1NC(=O)OC(C)(C)C [Compound R2]
fluorescence emission without Sn^2+ present (Streptococcus mutans stained with 10µM probe at 37° C for 60 min): no fluorescence emission
change of fluorescence after incubation with Sn^2+ (Streptococcus mutans, probe for 60 min at 37° C, then 50 µM Sn^2+ under the same conditions): significant fluorescence increasing
localization of fluorescence signals (overlay of fluorescence and brightfield images) (Streptococcus mutans, probe then 50 µM Sn^2+): localized in the Streptococcus mutans
